Laboratory results: patent publication US20260382604A1, “Inhibitors of Type 1 Methionyl-tRNA Synthetase and Methods of Using Them” (published 2026)

How the values were obtained:
MRSA = assay: Susceptibility testing (MIC), MRSA
Excerpt: (§1) Media and culture conditions. Mueller Hinton broth (MHB), cation adjusted Mueller Hinton broth (CA-MHB), Todd Hewitt Broth (THB) and Brain Heart Infusion broth (BHI) were purchased from Becton Dickinson (Franklin Lakes, NJ). Tryptic soy agar (TSA) plates and TSA with 5% sheep blood plates were purchased from Remel (San Diego, CA). MHB was used to assay all Staphylococcus aureus strains. CA-MHB was used for Staphylococcus epidermidis, Enterococcus faecalis, Enterococcus faecium, Escherichia coil, and Pseudomonas aeruginosa. THB broth supplemented with 1% yeast extract was used for Streptococcus pneumoniae and Streptococcus pyogenes. Staphylococcus. Enterococcus, Escherichia, and Pseudomonas strains were cultured at 37 °C with ambient air. Streptococcus strains were cultured in 37 °C with 5% CO2. Separate conditions for radiolabeled precursor uptake assays are described below.
(§2) Susceptibility testing: Minimum inhibitory concentration (MIC) determinations are performed in triplicate in 96-well round bottom microtiter plates (Corning, Corning NY) as described by the Clinical and Laboratory Standards Institute (CLSI). Serial two-fold dilutions of compounds are added to plates in 50 μL volumes. An additional 50 μL of media containing bacterial cells (1×10^6 CFUs/mL) is then added to each well. Maximum DMSO concentrations are 0.5%. Plates are incubated at 37 °C for at least 18 h before reading the susceptibility result by optical absorbance (OD600) using a BioTek ELx800. The lowest concentration causing ≥90% growth inhibition compared to the untreated control is recorded as the MIC (and also corresponded to the visual MIC). MICs are measured at least twice and the higher value (if different) is recorded herein.

S. aureus = assay: Susceptibility testing (MIC), S. aureus; details: for S. aureus MIC: serum-free conditions
Excerpt: as §1, §2

S. pyogenes = assay: Susceptibility testing (MIC), S. pyogenes; details: for S. pyogenes MIC: serum-free conditions
Excerpt: as §1, §2

T. cruzi = T. cruzi growth inhibition assay
Experimental: Trypanosoma crud growth inhibition assay: The Tulahuen strain of T. cruzi that expresses the Escherichia coli 3-galactosidase gene was utilized (PMID: 8913471). Mammalian stages of parasites were grown at 37 °C on monolayers of murine 3T3 fibroblasts in RPMI 1640 (Biowhittaker Inc., Walkersville, Md.) with 10% fetal bovine serum, penicillin, streptomycin, and glutamine. Growth inhibition assays were performed in 96-well tissue culture plates (Costar, Cambridge, Mass.). First, 3T3 fibroblasts were inoculated at 103/well using RPMI 1640 without phenol red (Biowhittaker Inc.) plus 10% fetal bovine serum and glutamine. The next day, the plates were infected with T. cruzi trypomastigotes at 104/well. After 4 h, drugs were added in serial dilutions to give a final volume of 200 μl/well. The plates were incubated at 37 °C in 5% CO2 atmosphere for 6 days. At this time. CPRG (100 μM final) and Nonidet P-40 (0.1% final) (Sigma Chemical Co., St. Louis, Mo.) were added and the plates were incubated at 37 °C for approximately 4 h. Wells with 0-galactosidase activity turned the media from yellow to red, and this was quantified on an enzyme-linked immunosorbent assay reader at A570.

[1] = read-out: T. cruzi EC50, in vitro growth inhibition (Table 4)
[2] = read-out: In Vitro EC50, anti-T. cruzi activity in vitro (Table 3)

Compound	S. aureus MIC (S. aureus)	S. pyogenes MIC (S. pyogenes) [µg/mL]	EC50 (T. cruzi; [2])	also measured
COc1cc(Cl)c(-c2cnc(NCC(F)F)c3nn(Cc4nc5nc(Cl)ccc5[nH]4)cc23)cc1OC	–	–	–	MRSA (ATCC33591) MIC (MRSA): 0.113 µg/mL; S. aureus (ATCC29213) MIC (S. aureus): 0.29 µg/mL; S. pyogenes (ATCC19615) MIC (S. pyogenes): 0.85 µg/mL
COc1cc(Cl)c(-c2cnc(S(C)(=O)=O)c3nn(Cc4nc5nc(Cl)ccc5[nH]4)cc23)cc1OC	–	–	–	MRSA (ATCC33591) MIC (MRSA): 0.0701 µg/mL; S. pyogenes (ATCC19615) MIC (S. pyogenes): 0.14 µg/mL; EC50 (T. cruzi; [1]): 245 nM
COc1cc(F)c(-c2c(F)nc(-c3cnn(CCO)c3)c3nc(Cc4nc5nc(Cl)ccc5[nH]4)cn23)cc1OC	0.0205 µg/mL	0.0200	33.5 nM and 36.7 nM	–
COc1cc(Cl)c(-c2c(F)nc(-c3cnn(C)c3C)c3nc(Cc4nc5nc(Cl)ccc5[nH]4)cn23)cc1OC	0.0485 µg/mL and 0.0455 µg/mL	0.0613	3.16 nM and 5.93 nM	–
COc1cc(Cl)c(-c2cnc(NC3COC3)c3nn(Cc4nc5nc(Cl)ccc5[nH]4)cc23)cc1OC	–	–	–	S. aureus (ATCC29213) MIC (S. aureus): >8.00 µg/mL; EC50 (T. cruzi; [1]): > 500 nM
COc1cc(Cl)c(-c2cnc(OC)c3nn(Cc4nc5nc(Cl)ccc5[nH]4)cc23)cc1OC	–	–	–	MRSA (ATCC33591) MIC (MRSA): 0.18 µg/mL; S. aureus (ATCC29213) MIC (S. aureus): 0.205 µg/mL; EC50 (T. cruzi; [1]): 23.8 nM and 16.9 nM
COc1cc(Cl)c(-c2cnc(F)c3nc(Cc4nc5nc(Cl)ccc5[nH]4)cn23)cc1OC	–	–	251 nM	loss of in vitro potency (T. cruzi; 8-F, compared to either 2541 or the parent 2503): more than an order of magnitude loss of in vitro potency
COc1cc(F)c(-c2c(F)nc(-c3cncnc3)c3nc(Cc4nc5nc(Cl)ccc5[nH]4)cn23)cc1OC	–	–	2.47 nM and 4.46 nM	–
CCn1ncc(C)c1-c1nc(F)c(-c2cc(OC)c(OC)cc2Cl)n2cc(Cc3nc4nc(Cl)ccc4[nH]3)nc12	0.138 µg/mL	0.209	10.4 nM and 9.25 nM	–
COc1cc(Cl)c(-c2c(F)nc(-c3ccnn3C)c3nc(Cc4nc5nc(Cl)ccc5[nH]4)cn23)cc1OC	–	0.03	–	–
COc1cc(Cl)c(-c2cnc(NCC(C)(C)O)c3nn(Cc4nc5nc(Cl)ccc5[nH]4)cc23)cc1OC	–	–	–	MRSA (ATCC33591) MIC (MRSA): 0.482 µg/mL; S. aureus (ATCC29213) MIC (S. aureus): 0.743 µg/mL; S. pyogenes (ATCC19615) MIC (S. pyogenes): 1.55 µg/mL
COc1cc(Cl)c(-c2c(F)nc(-c3cnn(CCO)c3)c3nc(Cc4nc5nc(Cl)ccc5[nH]4)cn23)cc1OC	0.0967 µg/mL and 0.0509 µg/mL	0.0589	–	–
CCNc1nc(F)c(-c2cc(OC)c(OC)cc2Cl)n2cc(Cc3nc4nc(Cl)ccc4[nH]3)nc12	0.0707 µg/mL	–	21.9 nM and 20.2 nM	–
COc1cc(F)c(-c2c(F)nc(-c3cnn(C)c3)c3nc(Cc4nc5nc(Cl)ccc5[nH]4)cn23)cc1OC	0.0173 µg/mL	0.187	10.2 nM and 10.6 nM	–
COc1cc(Cl)c(-c2c(F)nc(-c3cncnc3)c3nc(Cc4nc5nc(Cl)ccc5[nH]4)cn23)cc1OC	–	<0.00391	< 1.83 nM and 1.5 nM and 2.04 nM	–
COc1cc(Cl)c(-c2c(F)nc(-c3ccncc3)c3nc(Cc4nc5nc(Cl)ccc5[nH]4)cn23)cc1OC	–	0.0302	< 1.83 nM and 2.31 nM and 2.61 nM	–
COc1cc(Cl)c(-c2c(F)nc(-c3cccnc3)c3nc(Cc4nc5nc(Cl)ccc5[nH]4)cn23)cc1OC	–	0.136	–	–
COc1cc(Cl)c(-c2cnc(N3CCN(c4cnccn4)CC3)c3nn(Cc4nc5nc(Cl)ccc5[nH]4)cc23)cc1OC	–	–	–	MRSA (ATCC33591) MIC (MRSA): 0.0797 µg/mL; S. aureus (ATCC29213) MIC (S. aureus): 0.226 µg/mL; S. pyogenes (ATCC19615) MIC (S. pyogenes): 0.206 µg/mL
COc1cc(Cl)c(-c2c(F)nc(-c3c(C)cnn3C)c3nc(Cc4nc5nc(Cl)ccc5[nH]4)cn23)cc1OC	–	0.0549	–	–
COc1cc(F)c(-c2c(F)nc(-c3c(C)nn(C)c3C)c3nc(Cc4nc5nc(Cl)ccc5[nH]4)cn23)cc1OC	0.0838 µg/mL	0.133	30.3 nM and 24.6 nM	–
COc1cc(Cl)c(-c2c(F)nc(-c3cn(C)nc3C)c3nc(Cc4nc5nc(Cl)ccc5[nH]4)cn23)cc1OC	–	0.0285	–	–

Where “and” joins values, the source holds several entries; their conditions need not be identical. Identical values can stand only once. Like-named read-outs stand apart in the source and are kept apart here.
